Results: article PMC10914731, “Homo-BacPROTAC-induced degradation of ClpC1 as a strategy against drug-resistant mycobacteria” (Nature Communications, 2024)
For part of its entries the source gives two or more results. Only these are listed. The source may hold further records. The values listed for one entry do not match, cause unknown; they may come from other doses, times, organisms or constructs than stated.

Tested on: Caco-2 monolayers

C=CC(C)(C)n1cc(C[C@H]2C(=O)N(C)[C@@H](C[C@@H](C)CO)C(=O)N[C@@H](C)C(=O)N[C@@H]([C@H](OC)c3ccccc3)C(=O)N[C@@H](C(C)C)C(=O)N(C)[C@@H](CC(C)C)C(=O)N[C@@H]([C@H](C)C=C(C)C)C(=O)N2C)c2ccccc21 [Compound 23]
Papp A→B: 19 ×10⁻⁶ cm/s and 3.9 ×10⁻⁶ cm/s
